Source: patent US20240122867A1, “CORONAL PROTEIN-COATED NANOPARTICLES AND USES THEREOF” (UNIVERSITY OF CENTRAL FLORIDA RESEARCH FOUNDATION, INC., priority 2021, published 2024)

B1: Inter alpha-trypsin inhibitor, heavy chain 4 (protein, UniProt A6X935 29-942, looked up)
Inter alpha-trypsin …: EKNGIDIYSLTVDSRVSSRFAHTVVTSRVVNRADAVQEATFQVELPRKAFITNFSMIIDGVTYPGVVKEKAEAQKQYSAAVGRGESAGIVKTTGRQTEKFEVSVNVAPGSKITFELIYQELLQRRLGMYELLLKVRPQQLVKHLQMDIYIFEPQGISILETESTFMTPELANALTTSQNKTKAHIRFKPTLSQQQKSQSEQDTVLNGDFIVRYDVNRSDSGGSIQIEEGYFVHHFAPENLPTMSKNVIFVIDKSGSMSGKKIQQTREALVKILKDLSPQDQFNLIEFSGEANQWKQSLVQATEENLNKAVNYASRIRAHGGTNINNAVLLAVELLDRSNQAELLPSKSVSLIILLTDGDPTVGETNPTIIQNNVREAINGQYSLFCLGFGFDVNYPFLEKMALDNGGLARRIYEDSDSALQLQDFYHEVANPLLSSVAFEYPSDAVEEVTRYKFQHHFKGSEMVVAGKLQDQGPDVLLAKVSGQMHMQNITFQTEASVAQQEKEFKSPKYIFHNFMERLWALLTIQQQLEQRISASGAELEALEAQVLNLSLKYNFVTPLTHMVVTKPEGQEQFQVAEKPVEVGDGMQRLPLAAQAHPFRPPVRGSKLMTVLKGSRSQIPRLGDAVRASRQYIPPGFPGPPGPPGFPAPPGPPGFPAPPGPPLASGSDFSLQPSYERMLSLPSVAAQYPADPHLVVTEKSKESTIPEESPNPDHPQVPTITLPLPGSSVDQLCVDILHSEKPMKLFVDPSQGLEVTGKYENTGFSWLEVTIQKPHLQVHATPERLVVTRGRKNTEYKWKKTLFSVLPGLKMTMNMMGLLQLSGPDKVTIGLLSLDDPQRGLMLLLNDTQHFSNNVKGELGQFYRDIVWEPPVEPDNTKRTVKVQGVDYLATRELKLSYQEGFPGAEISCWTVEI
B2: Tubulin beta-3 chain (protein, UniProt Q9ERD7 1-450, looked up)
Tubulin beta-3 chain: MREIVHIQAGQCGNQIGAKFWEVISDEHGIDPSGNYVGDSDLQLERISVYYNEASSHKYVPRAILVDLEPGTMDSVRSGAFGHLFRPDNFIFGQSGAGNNWAKGHYTEGAELVDSVLDVVRKECENCDCLQGFQLTHSLGGGTGSGMGTLLISKVREEYPDRIMNTFSVVPSPKVSDTVVEPYNATLSIHQLVENTDETYCIDNEALYDICFRTLKLATPTYGDLNHLVSATMSGVTTSLRFPGQLNADLRKLAVNMVPFPRLHFFMPGFAPLTARGSQQYRALTVPELTQQMFDAKNMMAACDPRHGRYLTVATVFRGRMSMKEVDEQMLAIQSKNSSYFVEWIPNNVKVAVCDIPPRGLKMSSTFIGNSTAIQELFKRISEQFTAMFRRKAFLHWYTGEGMDEMEFTEAESNMNDLVSEYQQYQDATAEEEGEMYEDDDEESEAQGPK
B3: Tubulin beta-1 chain (protein, UniProt A2AQ07 1-451, looked up)
Tubulin beta-1 chain: MREIVHIQIGQCGNQIGAKFWEVIGEEHGIDCAGSYCGTSALQLERISVYYNEAYGKKYVPRAVLVDLEPGTMDSIRSSRLGVLFQPDSFVHGNSGAGNNWAKGHYTEGAELIENVMDVVRRESESCDCLQGFQIVHSLGGGTGSGMGTLLMNKIREEYPDRILNSFSVMPSPKVSDTVVEPYNAVLSIHQLIENTDACFCIDNEALYDICFRTLRLTTPTYGDLNHLVSLTMSGITTSLRFPGQLNADLRKLAVNMVPFPRLHFFMPGFAPLTAQGSQQYRALSVAELTQQMFDARNIMAACDPRRGRYLTVACIFRGKMSTKEVDQQLLSIQTRNSNCFVEWIPNNVKVAVCDIPPRGLNMAATFLGNNTAIQELFTRVSEHFSAMFRRRAFVHWYTSEGMDISEFGEAESDIHDLVSEYQQFQDVRAGLEDSEEDVEEAEVEAEDKDH
B4: Keratin, type I cytoskeletal 13 (protein, UniProt P08730 1-437, looked up)
Keratin, type I cytoskeletal …: MSCRFQSSSMSYGGGFGAGSCQLGGGRNISSCSSRFVTGGSAGGYGGGMSCGFGGGAGGGFGGGFGGGFGGSYGGGFGGGFGDFGGVDGGLLSGNEKITMQNLNDRLASYLDKVRALEAANADLEVKIRDWHLKQSPASPERDYSAYYKTIEELRIKILEATTDNNRIILEIDNARLAADDFRLKYENELTLRQSVEADINGLRRVLDELTLAKTDLEMQIESLNEELAYLKKNHEEEMKEFSNQVVGQVNVEMDATPGIDLTRVLAEMREQYEALAEKNRRDAEEWFQTKSAELNKEVSSNAEMIQTSKTEITELRRTLQGLEIELQSQLSMKAGLESTLAETECRYALQLQQIQGLISSIEAQLSELRSEMECQNQEYKMLLDIKTRLEQEIATYRSLLEGQDAKMTGFNSGGNNTTTSNGSPSSNSGRPDFRKY
B5: Vitamin D-binding protein (protein, UniProt P21614 17-476, looked up)
Vitamin D-binding protein: LERGRDYEKDKVCNELAMLGKEDFRSLSLILYSRKFSSSTFEQVNQLVKEVVSLTEECCAEGADPTCYDTRTSELSVKSCESDAPFPVHPGTPECCTKEGLERKLCMAALSHQPQEFPTYVEPTNDEICEAFRRDPKGFADQFLYEYSSNYGQAPLPLLVAYTKNYLSMVGSCCTSANPTVCFVKERLQMKHLSLLTTMSNRVCSQYAAYGKEKSRLSHLIKLAQKVPTANLENVLPLAEDFTEILSRCCESTSEDCMASELPEHTIKICQNLSKKNSKFEECCQENTPMNIFMCTYFMPAAEPLQLPAIKLPTGKDLCGQSTTQAMDQYTFELSRRTQVPEVFLSKVLEPTLKTLRECCDTQDSVACFSTQSPLLKRQLTSFIEKGQEMCADYSENTFTEYKKKLAERLRTKTPNTSPAELKDMVEKHSDFASKCCSINSPPLYCSSQIDAEMIDTLQS
B6: Vasculin-like protein 1 (protein, UniProt Q6NZP2 1-473, looked up)
Vasculin-like protein 1: MAQHDFVPAWLNFSTPQSSKSSTATFDKHGEHLSRGEGRFGISRRRHNSSDGFFNNGPLRTTGDSWHQPSLFRHDSVDSGVSKGAYAGTTGWHGSSRGHDGMSQRSGGSSTGNHRHWNGSFHSRKGCAFQEKTPTEIREEKKEDKVEKLQFEEEDFPSLNPEAGKQNQPCRPVGTPSGVWENPPSAKQPSKMLVIKKISKEDPAAAFSAAFTSSGSHHANGNKVSTMVPSVYKNLVPKPAPPPSKPNAWKANRTEHKPGSLCSSRESAFTNPISVTKPVGLAAGAGLHSPKESPSSTTPPIEISSSRLTKLTRRTTDRKSEFLKTLKDERNGDCSESRDCDKLEGLRLEGSHTPEPKENGEQGCLQNGLSLPMVEEGEVLSHSLEAEHRLLKAMGWQEYPENDESCLPLTEDELKEFHLRTEQLRRNGFGKNGLLQSRSCSLSSPWRSTCIAECEDSDSETSSSQTSDDDAWK
B7: Bridging integrator 2 (protein, UniProt D3Z6Q9 1-489, looked up)
Bridging integrator 2: MAEGKAGGAAGLFAKQMQKKFSRAQEKVLQKLGKTVETKDERFEQSASNFYQQQAEGHKLYKDLKNFLSAVKVMHESSKRVSETLQEVYSSDWDGHEDLKAIVGNNDLLWEDYEEKLADQALRTMENYVSQFSEIKERIAKRGRKLVDYDSARHHLEAVQNAKKKDDAKMAKAEEDFSKAQIVFEDLNQELLEELPILYNSRIGCYVTVFQNISNLRDVFYREMSKLNHNLYEVMSKLEKQHSNKVFVVKGLSSSSRRSLVISPPVQSCAASSPVSPVSPVSPVTSPTSPSATSEPESVSATGEELTSEAGGEDSCESQESLKDEEADEAQSETSSSLPACNGPTPAPASPAAEVGSQEEALSSSAQSPGRGQTGKDTPSPGDVVLRARASSEGAEQSKRAASIQRTSAPPSRPPPPRASGSGSCNAPGSPEGSSQLCSPRASPDASSNPEPAETREKEGAGSSGPEEPRAVSTKSATQASGGLVGLFL
B8: Angiotensinogen (protein, UniProt P11859 25-477, looked up)
Angiotensinogen: DRVYIHPFHLLYHNKSTCAQLENPSVETLPESTFEPVPIQAKTSPVNEKTLHDQLVLAAEKLEDEDRKRAAQVAMIANFVGFRMYKMLNEAGSGASGAILSPPALFGTLVSFYLGSLDPTASQLQTLLDVPVKEGDCTSRLDGHKVLAALRAVQGLLVTQGGSSSQTPLLQSIMVGLFTAPGFRLKHSFVQSLALFTPALFPRSLDLSTDPVLATEKINRFIKAVTGWKMNLPLEGVSTDSTLLFNTYVHFQGTMRGFSQLPGVHEFWVDNSISVSVPMISGTGNFQHWSDAQNNFSVTCVPLGERATLLLIQPHCTSDLDRVEALIFRNDLLTWIENPPPRAIRLTLPQLEIRGSYNLQDLLAEDKLPTLLGAEANLSNIGDTNPRVGEVLNSILLELKAGEEEQPTTSVQQPGSPEALDVTLSSPFLFAIYEQDSGTLHFLGRVNNPQSVV
B9: DNA topoisomerase 3-alpha (protein, UniProt O70157 1-1003, looked up)
DNA topoisomerase 3-alpha: MIFPVTLLAFQWHRRPGGRALSRAAMEVAFRGVRKVLCVAEKNDAAKGIADLLSNGRMRRKEGLSKFNKIYEFDYHLYGQNVTMIMTSVSGHLLAHDFQMQFRKWQSCNPLVLFEAEIEKYCPENFIDIKKTLERETHHCQALVIWTDCDREGENIGFEIIHVCKAVKPNLRVLRARFSEITPHAVRTACENLTEPDQRVSDAVDVRQELDLRIGAAFTRFQTLRLQRIFPEVLAEQLISYGSCQFPTLGFVVERFKAIQAFVPEVFHKIKVTHDHKDGTVEFNWKRYRLFNHTACLVLYQLCMEDPMATVVEVRSKPKSKWRPQALDTVELEKLASRKLRINAKETMRIAEKLYTQGYISYPRTETNIFPKDLNLVALVEQQTVDPHWGAFAQTILERGGPTPRNGSKSDQAHPPIHPTKYTSGLQGDDRRLYEFIVRHFLACCSQDAQGQETTVEIDIAQERFVAHGLIILARNYLDVYPYDHWSDKLLPVYEQGSHFQPSTVEMVDGETSPPQLLTEADLIALMEKHGIGTDATHAEHIETIKARMYVGLTSDKRFLPGHLGMGLVEGYDSMGYEMSKPDLRAELEADLKLICEGKKDKFQVLRQQVQKYKQVFIEAVAKAKKLDEALSQYLGERTEMAQQEEIYPAMPEPVRKCPQCNKDMVLKTKKSGGFYLSCMGFPECRSAVWFPDSVLEASRDNSVCSVCQPPPVYRLKLKFKRGSLPPAMPLEFVGCIGGCDETLKEIFGLRFPRALPRASQPSGHLQASQALNRMDSSQHNLSQPLVNRHTRPSKTVAQALLPPTTAGESNSVTCNCGREAVLLTVRKQGPNQGRHFYKCSNGDCNFFLWADSSHSTGGGTPTSASGPPGSSVGCPSSVGSHMDGFGSLGSDSDGGTPCLCGQPAVTRTVQKDGPNKGRQFHTCAKPREQQCGFFQWVDENVAPGSFAAPAWPGGRGKAQRPEAASKRPRAGSSDAGSTVKKPRKCSLCHQPGHTRTFCPQNR

Test system: coronal proteins on NPs
Set-up: species or system mouse
Settings: for V5 Sera_Nanoparticles Quantitative Value (Normalized Total Spectra): 20:1 NP:sera, centrifuged and washed; for V5 Sera Alone (Control) Quantitative Value (Normalized Total Spectra): IAV day 5 (V5) mouse sera alone
[1] = HBPE-NPs incubated 1 h with IAV day 5 (V5) mouse sera
[2] = HBPE-NPs incubated with IAV day 5 (V5) mouse sera 1 h
[3] = no NPs, mass spectrometry protein identification

Molecule | V5 Sera_Nanoparticles Quantitative Value (Normalized Total Spectra) [1] | V5 Sera Alone (Control) Quantitative Value (Normalized Total Spectra) (no NPs (sera-only control)) | V5 Sera_Nanoparticles Quantitative Value (Normalized Total Spectra) [2] | V5 Sera Alone (Control) Quantitative Value (Normalized Total Spectra) [3]
B1 | 35.901 | 70.317 |  | 
B2 |  |  | 0 | 1.8505
B3 |  |  | 0 | 0.9252
B4 |  |  | 0 | 0.9252
B5 | 33.726 | 36.084 |  | 
B6 |  |  | 0 | 0.9252
B7 |  |  | 0 | 1.8505
B8 |  |  | 0 | 0.9252
B9 |  |  | 0 | 0.9252

Like-named read-outs stand apart in the source and are kept apart here.
